Measured values from several laboratories, pooled; numbers as filed in NIAID ChemDB.

All rows: tests in culture; species: HIV-2; cell line: MT-4; read-out: EC50

An empty or dashed field is not shown. ECn: concentration that inhibits the pathogen or its effect by n%. Lines come from different laboratories, so protocols vary.

compound,strain,read by,value
Cc1cn([C@@H]2O[C@H](CO[Si](C)(C)C(C)(C)C)C3(OS(=O)(=O)C=C3N)[C@H]2O[Si](C)(C)C(C)(C)C)c(=O)n(C)c1=O,ROD,syncytia,>20 µM
Nc1nc(-c2ccc(Br)cc2Br)c(SCC(=O)Nc2ccccc2Cl)s1,ROD,MTT,>23.67 µM
Cc1cc(C)c(CN2CCC(Nc3nc(Nc4c(C)cc(C)cc4C)c4[nH]cnc4n3)CC2)c(C)c1,ROD,MTT,>4.8 µM
CC(C)c1c(C(=O)c2cccc3ccccc23)n(Cc2ccccc2)c(=O)[nH]c1=O,ROD,cytopathic effect / MTT,>33.54 µM
CCS(=O)(=O)C[C@H]1O[C@@H](n2cc(C)c(=O)[nH]c2=O)C[C@@H]1N=[N+]=[N-],ROD,,≥2.3 µg/mL
CC(C)N1C(=O)c2cccn2S(=O)(=O)c2ccccc21,,cytopathic effect / MTT,>100 µM
C=CCn1c(C(=O)c2cccc3ccccc23)c(CC)c(=O)[nH]c1=O,ROD,cytopathic effect / MTT,>39.22 µM
Cc1cn([C@@H]2O[C@H](CO[Si](C)(C)C(C)(C)C)C3(OS(=O)(=O)C=C3N)[C@H]2O[Si](C)(C)C(C)(C)C(C)C)c(=O)n(C)c1=O,ROD,syncytia,>30 µM
CC(C)c1c(C(=O)c2cccc3ccccc23)n(C/C=C/c2ccccc2)c(=O)n(C/C=C/c2ccccc2)c1=O,ROD,cytopathic effect / MTT,>129 µM
Cn1ncc2c1S(=O)(=O)N(CCc1ccc(C(C)(C)C)cc1)C(=O)N2CCc1ccc(C(C)(C)C)cc1,ROD,MTT,>5.3 µM
Cc1ccccc1NC(=O)CSc1sc(N)nc1-c1ccc(Br)cc1Br,ROD,MTT,>23.96 µM
COc1ccc(Cc2nccc3cc(OC)c(OC)cc23)cc1OC,ROD,cytopathic effect / MTT,>2 µg/mL
CCN1C(=O)c2cccn2S(=O)(=O)c2ccccc21,,cytopathic effect / MTT,>100 µM
Cc1ccnc2c1NC(=O)c1cccnc1N2C1CC1,ROD,MTT,>15.02 µM
CO[C@@H]1[C@@H](O)[C@@H](O)[C@H](O)[C@H](O)[C@H]1n1cnc2c(N)ncnc21.O=C(O)/C=C/C(=O)O,,cytopathic effect / MTT,>10 µg/mL
Cn1ncc2c1S(=O)(=O)N(CCc1ccccc1)C(=O)N2CCc1ccc(Br)cc1,ROD,MTT,>112.7 µM
C=S(=C)(C)c1ccc(CN2CCC(Nc3nc(Nc4c(C)cc(C)cc4C)c4[nH]cnc4n3)CC2)cc1,ROD,MTT,>34.64 µM
CC(C)(C)NC(=O)[C@@H]1C[C@@H]2CCCC[C@@H]2CN1C[C@@H](O)[C@H](Cc1ccccc1)NC(=O)[C@H](CC(N)=O)NC(=O)c1ccc2ccccc2n1,ROD,cytopathic effect / MTT,<0.0008 µg/mL
O=C(CSc1sc(Cl)nc1-c1ccc(Br)cc1Br)Nc1cccnc1Cl,ROD,MTT,>23.24 µM
CC(C)(C)OC(=O)[C@@H]1CCCN1C[C@@H](O)[C@H](Cc1ccccc1)NC(=O)[C@H](CC(N)=O)NC(=O)OCc1ccccc1,ROD,cytopathic effect / MTT,10.9 µg/mL
CCc1c(C(=O)c2cccc3ccccc23)n(CC(=O)c2ccc(OC)cc2)c(=O)[nH]c1=O,ROD,cytopathic effect / MTT,>28.75 µM
Nc1nc(-c2ccc(Br)cc2Br)c(SCC(=O)Nc2cccnc2Cl)s1,ROD,MTT,>45.73 µM
CO[C@H]1[C@@H](O)[C@H](n2ccc(N)nc2=O)[C@@H](O)[C@H](O)[C@@H]1O,,cytopathic effect / MTT,>10 µg/mL
Cc1c(Sc2ccccc2)n(COCCO)c(=O)[nH]c1=O,ROD,cytopathic effect / MTT,>405.8 µM
Nc1nc(-c2ccc(Br)cc2Br)c(SCC(=O)Nc2ccccc2Br)s1,ROD,MTT,>33.18 µM
CN1C(=O)c2cccn2S(=O)(=O)c2cc(Cl)ccc21,,cytopathic effect / MTT,>100 µM
Cn1ncc2c1S(=O)(=O)N(CCc1ccccc1)C(=O)N2CCc1ccccc1Br,ROD,MTT,>271.1 µM
O=C(O)P(=O)(O)O,ROD,cytopathic effect / MTT,9.5 µg/mL
Cc1cc(C)c(Nc2nc(NC3CCN(Cc4ccccc4C)CC3)nc3nc[nH]c23)c(C)c1,ROD,MTT,>7.81 µM
CC(=O)NC1=CS(=O)(=O)OC12[C@@H](COCc1ccccc1)O[C@@H](n1cc(C)c(=O)[nH]c1=O)[C@@H]2OC(C)=O,ROD,syncytia,>160 µM
Cc1cc([N+](=O)[O-])ccc1NC(=O)CSc1sc(N)nc1-c1ccc(Br)cc1Br,ROD,MTT,>30.81 µM
CO[C@H]1[C@@H](O)[C@H](n2ccc(N)nc2=O)[C@@H](O)[C@H](O)[C@@H]1O.O=C(O)/C=C/C(=O)O,,cytopathic effect / MTT,>10 µg/mL
Cn1ncc2c1S(=O)(=O)N(CCc1ccccc1)C(=O)N2CCc1ccccc1,ROD,MTT,>327.2 µM
Cc1ccnc2c1NC(=O)c1cccnc1N2C1CC1,ROD,MTT,>2 µg/mL
Cc1cn([C@H]2C[C@H](N=[N+]=[N-])[C@@H](CO)O2)c(=O)[nH]c1=O,ROD,,0.00071 µg/mL
Cc1cn([C@@H]2O[C@H](COCc3ccccc3)C3(OS(=O)(=O)C(Cc4ccccc4)=C3NCc3ccccc3)[C@H]2O[Si](C)(C)C(C)(C)C)c(=O)n(C)c1=O,ROD,syncytia,>130 µM

For reference, 4 entries again:

| compound | strain | read by | value |
|---|---|---|---|
| Cc1cc([N+](=O)[O-])ccc1NC(=O)CSc1sc(N)nc1-c1ccc(Br)cc1Br | ROD | MTT | >30.81 µM |
| Cc1cn([C@@H]2O[C@H](COCc3ccccc3)C3(OS(=O)(=O)C(Cc4ccccc4)=C3NCc3ccccc3)[C@H]2O[Si](C)(C)C(C)(C)C)c(=O)n(C)c1=O | ROD | syncytia | >130 µM |
| O=C(O)P(=O)(O)O | ROD | cytopathic effect / MTT | 9.5 µg/mL |
| C=S(=C)(C)c1ccc(CN2CCC(Nc3nc(Nc4c(C)cc(C)cc4C)c4[nH]cnc4n3)CC2)cc1 | ROD | MTT | >34.64 µM |